PubChem BioAssay AID1259414 | Drosophila RNAi Screening Center, 2018
The deposit covers about 24,000 reagents; below is a random part of those with a known target gene and a result. Over the whole deposit, about 1,210 (5%) got an active call. 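Inactive calls also include excluded dsRNAs with several or no targets, genes unexpressed in JW18, and well A1, regardless of score.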 Names joined by + are all predicted targets of the reagent.

- Assay: 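Genome-wide screen for host control of endosymbiont load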 (primary screen)
- Cell system: Drosophila JW18 cells infected with Wolbachia
- Reagents: long dsRNA against Drosophila genes, 0.25 µg dsRNA per well of a 384-well plate
- Time to read-out: 5 days
- Treatment: cells persistently infected with Wolbachia before knock-down; no added drug
- Read-out: 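Automated imaging of bacterial rRNA staining divided by host cell count, reported as plate-normalised robust z-score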
- Reading the numbers: Wolbachia per cell robust z: higher = more Wolbachia per host cell than the plate typical
- Call rule: 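Hit when robust z is 1.5 or more, or -1.5 or less, in at least two of three replicates; excludes dsRNAs with several or no targets, genes not expressed in JW18 and well A1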

target gene,amplicon,"Wolbachia per cell robust z, rep 1","Wolbachia per cell robust z, rep 2","Wolbachia per cell robust z, rep 3",Outcome
CG42237,DRSC19891,-1.82,0.682,0.581,inactive
"Dnai2 (dynein, axonemal, intermediate chain 2)",DRSC10575,0.575,0.843,-0.114,inactive
CG9166,DRSC07842,-1.25,0.603,0.45,inactive
lncRNA:bxd (bithoraxoid),DRSC13176,-1.2,-0.638,-0.0929,inactive
lncRNA:bxd (bithoraxoid),DRSC28062,-0.887,-1.07,-1.46,inactive
lncRNA:bxd (bithoraxoid),DRSC39127,-0.871,0.0741,-0.818,inactive
CG14974,DRSC08433,0.723,0.478,0.693,inactive
Fgop2 (Fibroblast growth factor receptor 1 oncogene partner 2),DRSC02016,0.639,1.9,2.39,active
Tango2 (Transport and Golgi organization 2),DRSC19394,-0.269,-6.22,0.539,inactive
Tango2 (Transport and Golgi organization 2),DRSC21526,-1.03,-0.416,-0.206,inactive
CG32762,DRSC18298,1.13,-4.19,0.823,inactive
CG32762,DRSC24339,0.402,0.438,-7.76,inactive
mtm (myotubularin),DRSC03576,1.62,-1.52,-0.629,inactive
CG1924,DRSC19823,-4.48,-0.209,-0.763,inactive
CG1924,DRSC24870,-1.54,-3,-2.14,active
CG31157,DRSC21832,-0.285,0.461,-0.68,inactive
CG31157,DRSC29159,1.35,0.385,-1.63,inactive
Sec31 (Secretory 31),DRSC07131,-0.372,0.565,1.19,inactive
Sec31 (Secretory 31),DRSC27091,0.212,0.684,0.308,inactive
scrt (scratch),DRSC23001,0.189,0.872,-0.845,inactive
scrt (scratch),DRSC25792,-2.19,-0.528,0.0923,inactive
Cyp6a13 (Cytochrome P450 6a13),DRSC07375,0.743,-0.231,-0.311,inactive
CG42638 + Trpml,DRSC11032,-2.29,0.0186,-0.0155,inactive
CG8833,DRSC11050,-4.98,1.34,0.271,inactive
Cox10 (Cytochrome c oxidase assembly factor 10),DRSC02804,0.193,-0.57,-0.213,inactive
CG17472,DRSC02622,-0.373,0.376,1.41,inactive
CG31431,DRSC14589,-1.33,-2.9,-1.95,inactive
Inos (myo-inositol-1-phosphate synthase),DRSC07655,-1.85,-2.35,1.59,active
Inos (myo-inositol-1-phosphate synthase),DRSC27019,-1.9,-0.699,0.29,inactive
CG14877,DRSC15001,0.755,0.699,1.06,inactive
CG14877,DRSC30033,1.18,-0.159,0.6,inactive
CG13245,DRSC02243,-0.488,0.0861,0.739,inactive
colt (congested-like trachea),DRSC00808,-0.399,0.616,-0.00812,inactive
colt (congested-like trachea),DRSC29025,0.775,1.25,0.468,inactive
PIP82,DRSC18694,-0.933,0.397,0.203,inactive
PIP82,DRSC25335,0.793,0.584,1.42,inactive
Rpp14a + CG7950,DRSC16353,0.265,-0.0936,0.821,inactive
Rpp14a + CG7950,DRSC28664,0.478,-1.24,1.14,inactive

An excerpt from the list above, for reference:
target gene,amplicon,"Wolbachia per cell robust z, rep 1","Wolbachia per cell robust z, rep 2","Wolbachia per cell robust z, rep 3",Outcome
CG31157,DRSC29159,1.35,0.385,-1.63,inactive
Sec31 (Secretory 31),DRSC07131,-0.372,0.565,1.19,inactive
Sec31 (Secretory 31),DRSC27091,0.212,0.684,0.308,inactive
scrt (scratch),DRSC23001,0.189,0.872,-0.845,inactive
scrt (scratch),DRSC25792,-2.19,-0.528,0.0923,inactive
Cyp6a13 (Cytochrome P450 6a13),DRSC07375,0.743,-0.231,-0.311,inactive
CG42638 + Trpml,DRSC11032,-2.29,0.0186,-0.0155,inactive

More reagents follow:
target gene,amplicon,"Wolbachia per cell robust z, rep 1","Wolbachia per cell robust z, rep 2","Wolbachia per cell robust z, rep 3",Outcome
CG9135,DRSC03144,-0.724,-0.117,-2.29,inactive
da,DRSC03517,-0.25,0.535,0.307,inactive
da,DRSC40784,-2.64,-1.04,-0.747,inactive
snRNA:U2:34ABb (small nuclear RNA U2 at 34AB b),DRSC37897,1.68,0.00658,0.147,inactive
CR32733 (pseudo),DRSC17481,0.264,0.661,0.42,inactive
CR32733 (pseudo),DRSC28689,-0.505,0.234,-0.166,inactive
nudC,DRSC11096,0.968,-0.521,0.354,inactive
nudC,DRSC11097,0.649,-0.764,-0.857,inactive
Snp + CG44249,DRSC04524,-0.0573,-1.6,0.337,inactive
Aef1 (Adult enhancer factor 1),DRSC11605,-0.694,-0.177,-0.178,inactive
Vps60 (Vacuolar protein sorting 60),DRSC10610,0.434,0.603,1.01,inactive
CG8195,DRSC07103,0.379,0.984,-0.315,inactive
Jon99Fi + Jon99Cii + Jon99Fii + 1 more,DRSC15298,-0.605,-1.08,0.000931,inactive
Mrgn1 (Mahogunin ring finger 1),DRSC20223,0.606,-1.84,-2.16,active
Hakai,DRSC02031,-0.485,-0.523,0.242,inactive
Hsp60B (Heat shock protein 60B),DRSC00542,-0.148,1.21,-0.227,inactive
CG12520,DRSC09892,-3.06,-1.32,-2.27,active
Art9 (Arginine methyltransferase 9),DRSC16584,-0.407,-0.564,0.55,inactive
Got2 (Glutamate oxaloacetate transaminase 2),DRSC00643,-0.673,-8.69,-1.23,inactive
epsilonCOP (Coat Protein (coatomer) epsilon),DRSC02003,0.066,-0.812,1.44,inactive
epsilonCOP (Coat Protein (coatomer) epsilon),DRSC26466,0.605,-1.15,-0.327,inactive
Tango6 (Transport and Golgi organization 6),DRSC02671,0.214,-1.64,-1.48,inactive
Tango6 (Transport and Golgi organization 6),DRSC29389,0.904,0.124,-0.699,inactive
CG9150,DRSC03148,-3.51,0.183,0.286,inactive
CG9150,DRSC25676,-0.832,-1.11,-2.12,inactive
CG34206,DRSC38661,-1.1,0.0153,-6.06,inactive
Spn42Dc (Serpin 42Dc),DRSC05010,-0.573,-2.16,-0.0976,inactive
Myo31DF (Myosin 31DF),DRSC03376,-8.6,-4.09,0.221,active
Myo31DF (Myosin 31DF),DRSC22702,-3.4,-1.51,-0.762,active
Myo31DF (Myosin 31DF),DRSC25363,-0.706,1.42,0.352,inactive
